Experimental data: PubChem BioAssay AID504761 (Drosophila RNAi Screening Center, 2011)
Purpose: 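Insect host genes that dengue virus relies on to spread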 (primary screen). Cell system: D.Mel-2 cells from Drosophila. Knock-down reagent: long dsRNA against Drosophila genes. Conditions: infection with dengue virus type 2; dose and infection time not stated. Measurement: 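Cells stained for dengue envelope protein and imaged; percent of infected cells per well on duplicate plates, ranked by infection, with stained nuclei counted for cell number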. Scale: infection score: higher = more virus-infected cells; cell count: higher = more cells in the well. Active means: 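Low infection ranks in the two replicates (chance level up to 0.065) followed by a retest with a 1.5-fold or larger significant decrease, p below 0.05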. Calls: active = confirmed: knock-down lowers infection; inactive = not picked or not confirmed.
The deposit covers about 22,000 reagents; this is an unselected part of those with a known target gene and a result. In the full data, 116 (0.52%) are marked active. 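Calls depend on retest data that are not deposited; infection was ranked per plate without normalising between plates; the unit of the infection score is not given.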 Raw values vary from plate to plate and are shown uncorrected. Unmarked entries are inactive. The numbers tell different reagents against one gene apart. Names joined by + are all predicted targets of the reagent. Not stated in the record: the amount of reagent, the time to read-out.

infection score, replicate 1 | infection score, replicate 2 | cell count, replicate 1 | cell count, replicate 2 | target gene | reagent
0.42 | 5.3 | 6261 | 6040 | CG34461 (GeneID 5740547) | 1
4 | 14.4 | 6821 | 5814 | Elp3 (GeneID 33649) | 1
20.8 | 0.71 | 3307 | 6511 | FarO (GeneID 45707) | 1
1.24 | 4.08 | 6778 | 1496 | CG12885 (GeneID 43308) | 1
4.53 | 6.48 | 6563 | 6530 | CG12885 (GeneID 43308) | 2
3.8 | 6.8 | 6291 | 6298 | Vha44 (GeneID 36826) | 1
25.6 | 11.5 | 5745 | 5375 | Vha44 (GeneID 36826) | 2
2.75 | 2.22 | 5202 | 5182 | Vha44 (GeneID 36826) | 3
1.89 | 0.55 | 1537 | 1816 | Prosalpha6 (GeneID 34359) | 1
6.91 | 2.08 | 5167 | 5720 | SkpC (GeneID 32996) | 1
12.6 | 6.19 | 5688 | 6558 | SkpC (GeneID 32996) | 2
5.3 | 23.4 | 5717 | 5581 | ProRS-m (GeneID 38331) | 1
6.95 | 4.4 | 6187 | 6075 | ProRS-m (GeneID 38331) | 2
12 | 5.65 | 4271 | 5473 | CG15036 (GeneID 50396) | 1
8.62 | 6.92 | 6151 | 6505 | CG15036 (GeneID 50396) | 2
0.76 | 0.74 | 6609 | 5973 | CG30026 (GeneID 246399) | 1
– | – | 267 | 382 | CG30026 (GeneID 246399) | 2
4.28 | 3.33 | 6773 | 6670 | Ibf2 (GeneID 41102) | 1
4.07 | 1.56 | 5966 | 5566 | CG32026 (GeneID 317829) | 1
19.6 | 35.5 | 5365 | 3564 | CG32026 (GeneID 317829) | 2
6.9 | 6.79 | 6655 | 6703 | thw (GeneID 40868) | 1
2.66 | 5.99 | 6463 | 6629 | CG7565 (GeneID 38893) | 1
12.5 | 6.64 | 5059 | 6338 | CG10211 (GeneID 35106) | 1
1.34 | 0.32 | 598 | 627 | CG10211 (GeneID 35106) | 2
1.55 | 1.49 | 5862 | 5424 | CG30047 (GeneID 246414) | 1

5 entries from above, sorted by “infection score, replicate 2”, high to low.
infection score, replicate 1 | infection score, replicate 2 | cell count, replicate 1 | cell count, replicate 2 | target gene | reagent
5.3 | 23.4 | 5717 | 5581 | ProRS-m (GeneID 38331) | 1
12.6 | 6.19 | 5688 | 6558 | SkpC (GeneID 32996) | 2
12 | 5.65 | 4271 | 5473 | CG15036 (GeneID 50396) | 1
6.95 | 4.4 | 6187 | 6075 | ProRS-m (GeneID 38331) | 2
6.91 | 2.08 | 5167 | 5720 | SkpC (GeneID 32996) | 1

Further entries follow.
infection score, replicate 1 | infection score, replicate 2 | cell count, replicate 1 | cell count, replicate 2 | target gene | reagent
4.53 | 0.25 | 6119 | 5930 | CG31088 (GeneID 318590) | 1
2.67 | 2.02 | 6545 | 6173 | CG31088 (GeneID 318590) | 2
1.94 | 4.37 | 6903 | 6456 | CG13807 (GeneID 38290) | 1
11.1 | 6.71 | 3402 | 1162 | CG13807 (GeneID 38290) | 2
1.36 | 7.44 | 6473 | 6813 | Urm1 (GeneID 2768949) | 1
19.8 | 17.9 | 4752 | 3917 | Urm1 (GeneID 2768949) | 2
13.8 | 19.2 | 1359 | 4778 | Top1 (GeneID 32458) | 1
3.59 | 3.03 | 6401 | 6435 | CG13907 (GeneID 38104) | 1
0.72 | 1.06 | 6909 | 6595 | CG13907 (GeneID 38104) | 2
15.7 | 5.93 | 5478 | 725 | CG15601 (GeneID 32509) | 1
2.97 | 0.29 | 6532 | 6892 | nompC (GeneID 33768) | 1
5.62 | 5.25 | 6756 | 6705 | Pgam5-2 (GeneID 37899) | 1
5.06 | 11.2 | 6783 | 6308 | CG3618 (GeneID 40303) | 1
10.9 | 9.41 | 4312 | 5387 | CG9029 (GeneID 33815) | 1
10.5 | 10.3 | 5900 | 6026 | Pp2A-29B (GeneID 2768940) | 1
– | 1.1 | 309 | 637 | Pp2A-29B (GeneID 2768940) | 2
3.1 | 3.51 | 6893 | 6525 | CG14102 (GeneID 40156) | 1
4.08 | 7.25 | 6587 | 6674 | CG40053 (retired record) (GeneID 3355092) | 1
4.08 | 15.4 | 1959 | 6030 | CG40053 (retired record) (GeneID 3355092) | 2
4.89 | 6.14 | 5769 | 5246 | CG40053 (retired record) (GeneID 3355092) | 3
2.81 | 2.64 | 6478 | 6358 | CG2818 (GeneID 33597) | 1
14.1 | 20.9 | 6104 | 6010 | CG15773 (GeneID 31494) | 1
2.35 | 2.35 | 5563 | 5482 | E5 (GeneID 45396) | 1
0.88 | 6.43 | 6575 | 6767 | E5 (GeneID 45396) | 2
6.61 | 12.5 | 2133 | 6038 | E5 (GeneID 45396) | 3
11.1 | 31.1 | 5031 | 4902 | drosha (GeneID 35747) | 1
23.5 | 5.83 | 4552 | 6807 | BG642163 (GeneID 4379888) | 1
7.6 | 7.14 | 6740 | 6612 | BG642163 (GeneID 4379888) | 2
13.1 | 4.08 | 6060 | 6024 | ACXC (GeneID 34689) | 1
1.17 | 10.8 | 6729 | 6033 | CG11889 + CG11891 | 1
5.1 | 5.56 | 7201 | 1224 | CG11889 + CG11891 | 2
11 | 3.29 | 6451 | 5688 | CG11889 + CG11891 | 3
4.52 | 4.9 | 5997 | 6373 | CG3223 (GeneID 40947) | 1
19.6 | 13.5 | 5319 | 4688 | CG3223 (GeneID 40947) | 2
